Data as given in patent US20160122388A1, “Conotoxin peptides, pharmaceutical compositions and uses thereof” (published 2016).

Biological target: human α9α10 nAChR with Ile56 replaced by Thr in the α9 subunit (human), Q9UGM1
Experiment: cell-based or functional assay

B1: α-Conotoxin peptide RgIA (peptide)
peptide: GCCSDPRCRYRCR
modifications: not checked
  increase in RgIA potency: 2 log
